The values that follow come from article PMC4140785 (Structure (London, England : 1993), 2013).

Test [1] concerns HIV-1 (24-isolate pseudovirus panel). In words: HIV-1 Env-pseudovirus neutralization, 24-isolate panel. Format: cell-based. As to conditions: Env-pseudoviruses, TZM-bl target cells.
The target of test [2] is HIV-1 YU2 gp120 (full-length, clade B) (Human immunodeficiency virus type 1 group M subtype B, UniProt P35961). In words: SPR binding to immobilized YU2 gp120.
In another test the test system is HIV-1 Clade A/E viruses. In words: Neutralization of Clade A/E HIV-1 isolates. In kind it is cell-based. As to conditions: Clade A/E viruses with His375.

As to `CC(C)C[C@@H]1NC(=O)CNC(=O)[C@H](CC(C)C)NC(=O)[C@H](CO)NC(=O)[C@H](CCCCN)NC(=O)[C@@H]2CSSC[C@@H](C(=O)N[C@H](C(N)=O)C(C)C)NC(=O)[C@H](C)NC(=O)[C@@H]3CSSC[C@H](NC(=O)[C@H](Cc4ccccc4)NC(=O)[C@H](Cc4c[nH]cn4)NC(=O)[C@H](CC(C)C)NC(=O)[C@H](CC(N)=O)NC(=O)CCSSC[C@H](NC(=O)[C@H](CCCNC(=N)N)NC(=O)CNC(=O)[C@H](CC(C)C)NC1=O)C(=O)N[C@@H](C)C(=O)N1CCC[C@@H]1C(=O)N[C@@H]([C@@H](C)O)C(=O)N[C@@H](Cc1ccc(OCCCCCO)cc1)C(=O)N3)C(=O)N[C@@H](CCC(N)=O)C(=O)N[C@@H](CC(C)C)C(=O)N[C@@H](CCCNC(=N)N)C(=O)N2` [M48U7], in test [1], the “Neutralization Breadth” value is 67%. Moreover, in test [1] (single round of infection), the “Neutralization Potency (geometric mean IC50)” value worked out at 5.18 mg/L. Also, in test [2] (M48U7 versus M48U1), the “fold faster dissociation from gp120” value is “about 10 times”. Besides, the kon in test [2] (read-out: association rate) was 2.42e+06 M⁻¹ s⁻¹. For the same molecule, the koff in test [2] (read-out: dissociation rate (off-rate)) was 0.000446 s⁻¹. For the same molecule, the “neutralization of Clade A/E viruses (in words)” value with HIV-1 Clade A/E viruses is “none of the clade A/E viruses tested in this study were neutralized”.
